Test results published in patent US6972343B1, “Quaternary bis-ammonium salt precursors and their uses as prodrugs having an antiparasitic activity” (CNRS, priority 1999, dated 2005).
Where two headings read alike, the source gives them in different places.

Tested on: P. vinckei
Format: in vivo
Details: mouse
Description: B) Antimalarial Activity in vivo Against a Mouse Infected by P. vinckei and Tolerance After Administration in Acute or Semi-chronic Conditions.
The IC50 is the concentration which inhibits by 50% the in vitro growth of P. falciparum: the LD50 is the lethal dose corresponding to the death of 50% of the mice and the ED50 is the effective dose for inhibiting by 50% the in vivo growth of P. vinckei according to a 4-day suppressive test, TI corresponds to the therapeutic index, TI=LD50 (semi-chronic)/ED50; ip: intraperitoneal administration; po: per os.

C[N+]1(CCCCCCCCCCCCCCCC[N+]2(C)CCCC2)CCCC1 [G25, 1,16-hexadecamethylene bis-(N-methylpyrrolidinium), reference compound]
TI (therapeutic index = LD50 semi-chronic/ED50) (ip): 5.2 | TI (therapeutic index = LD50 semi-chronic/ED50) (po): 4.4

COCCC(SC(=O)c1ccccc1)=C(C)N(C=O)CCCCCCCCCCCCN(C=O)C(C)=C(CCOC)SC(=O)c1ccccc1 [TE4c, N,N′-diformyl-N,N′-di[1-methyl-2-S-thiobenzoyl-4-methoxybut-1-enyl]-1,12-diaminododecane]
TI (therapeutic index = LD50 semi-chronic/ED50) (ip): ≥ 30

CCCSSC(CCO)=C(C)N(C=O)CCCCCCCCCCCCN(C=O)C(C)=C(CCO)SSCCC [TS3b, N,N′-diformyl-N,N′-di[1-methyl-2-propyl-dithio-4-hydroxybut-1-enyl]-1,12-diaminododecane]
TI (therapeutic index = LD50 semi-chronic/ED50) (po): 2.3
